Results of unrelated studies side by side (data: NIAID ChemDB).

Shared fields: tests in culture; agent: Cryptococcus neoformans

ECn is the concentration giving n% inhibition of infection, replication or growth.

compound | strain | read by | endpoint | result
C[C@@H]1CC[C@@]2(OC1)O[C@H]1C[C@H]3[C@@H]4CC=C5C[C@@H](O)[C@H](O)[C@@H](O[C@@H]6OC[C@@H](O)[C@H](O)[C@H]6O[C@@H]6O[C@@H](C)[C@H](O)[C@@H](O)[C@H]6O)[C@]5(C)[C@H]4CC[C@]3(C)[C@@]1(O)[C@@H]2C |  |  | MFC | 10 µg/mL
CC[C@@H]1C[C@@]2(CC)O/C(=C\C(=O)OC)[C@@]3(CC)[C@H](CC)[C@]1(C)[C@@]23C | ATCC | broth dilution | MIC80 | 0.41 µM
COC(=O)Nc1nc2ccc(Sc3ccccc3)cc2[nH]1 | 10 isolates |  | EC90 | 0.015–0.033 µg/mL
C[N+]1=CC2C(=O)c3nccc4ccnc(c34)C2C1 |  |  | MIC80 | >64 µg/mL
CCN1C2=NC[C@H](Cc3ccccc3)N2C[C@H]1C1CCCCC1 | ATCC 32045 |  | EC50 | 38.6 µg/mL
C[C@H]1[C@H](O)[C@@H](C)/C=C/C=C/C=C/C=C/C=C/C=C/C=C/[C@H](O[C@@H]2O[C@H](C)[C@@H](O)[C@H](N)[C@@H]2O)C[C@@H]2O[C@](O)(C[C@@H](O)C[C@@H](O)CC[C@H](O)[C@@H](O)C[C@@H](O)CC(=O)O[C@H]1C)C[C@H](O)[C@H]2C(=O)O | ATCC 32264 | broth dilution | MIC100 | 0.25 µg/mL
O=C(O)/C=C/c1ccccc1 | CBS 132 | broth dilution / turbidity | EC50 | 0.11 µM
C1CCC(C[C@H]2CN3C(=NC[C@H]3CC3CCCCC3)N2CCC23CC4CC(CC(C4)C2)C3)CC1 | ATCC 32045 |  | EC50 | 2.7 µg/mL
C[C@@H]1CC[C@@]2(OC1)O[C@H]1C[C@H]3[C@@H]4CC=C5C[C@@H](O[C@@H]6O[C@H](CO)[C@H](O[C@@H]7O[C@@H](C)[C@H](O)[C@@H](O)[C@H]7O)[C@@H](O)[C@H]6O[C@@H]6O[C@@H](C)[C@H](O)[C@@H](O)[C@H]6O)CC[C@]5(C)[C@H]4CC[C@]3(C)[C@H]1[C@@H]2C |  |  | MFC | ≥20 µg/mL
C[C@@H]1[C@H](O)[C@@H](C)/C=C/C=C/CC/C=C/C=C/C=C/C=C/C(O[C@H]2O[C@H](C)[C@@H](O)[C@H](N)[C@@H]2O)CC2O[C@](O)(CC(O)C(O)CCC(O)CC(O)CC(O)CC(=O)O[C@H]1C)CC(O)C2C(=O)O |  | broth dilution / turbidity | EC50 | 3.125 µg/mL
C=C(CCC1(O)O[C@H]2C[C@H]3[C@@H]4CC=C5C[C@@H](O)[C@H](O)[C@@H](O[C@@H]6O[C@H](CO)[C@H](O)[C@H](O)[C@H]6O)[C@]5(C)[C@H]4CC[C@]3(C)[C@H]2[C@@H]1C)CO[C@@H]1O[C@H](CO)[C@@H](O)[C@H](O)[C@H]1O |  |  | MFC | 5 µg/mL
CN(C)C1=NC(=O)/C(=C/c2ccc([N+](=O)[O-])cc2)S1 | ATCC 32264 | broth dilution | MIC100 | >250 µg/mL
Cc1c(N)nc([C@H](CC(N)=O)NC[C@H](N)C(N)=O)nc1C(=O)N[C@H](C(=O)N[C@H](C)[C@@H](O)[C@H](C)C(=O)N[C@H](C(=O)NCCc1nc(-c2nc(C(=O)NCCC[S+](C)C)cs2)cs1)[C@@H](C)O)C(O[C@@H]1O[C@@H](CO)[C@@H](O)[C@H](O)[C@@H]1O[C@H]1O[C@H](CO)[C@@H](O)[C@H](OC(N)=O)[C@@H]1O)c1cnc[nH]1 | Isolate 94-181 |  | MLC | 3.23 µg/mL
Cc1cc(O)c2c(c1)C(=O)C=CC2=O |  |  | MFC | 1 µg/mL
C1CCC([C@H]2CN3C(=NC[C@@H]3C3CCCCC3)N2CCC23CC4CC(CC(C4)C2)C3)CC1 | ATCC 32045 |  | EC50 | 2.2 µg/mL
O=Cc1cccc(O)c1O | CBS 132 | broth dilution / turbidity | EC50 | 0.03 µM
COC(=O)Nc1nc2ccc(C(=O)c3cccs3)cc2[nH]1 | IU4 |  | EC90 | 0.22 µg/mL
C=C1CC[C@@]2(OC1)O[C@H]1C[C@H]3[C@@H]4CC=C5C[C@@H](O)[C@H](O)[C@@H](O[C@@H]6O[C@H](CO)[C@H](O)[C@H](O)[C@H]6O)[C@]5(C)[C@H]4CC[C@]3(C)[C@H]1[C@@H]2C |  |  | MFC | ≥20 µg/mL
C1CCC(C[C@H]2CN=C3N(CCC45CC6CC(CC(C6)C4)C5)[C@@H](CC4CCCCC4)CN32)CC1 | ATCC 32045 |  | EC50 | 5.7 µg/mL
CC(C)(C)[C@](O)(COc1ccc(Cl)cc1)Cn1cncn1 |  |  | MLC50 | >0.08 µg/mL
COc1cc(O)c(C(C)=O)c(OC)c1 |  |  | MFC | >500 µg/mL
CC/C=C/[C@H](CC)C/C(=C/[C@@]1(CC)C[C@H](CC)[C@H](CC(=O)O)OO1)CC |  |  | EC50 | 5.5 µg/mL
c1ccc(C[C@H]2CN=C3N(CCC45CC6CC(CC(C6)C4)C5)[C@@H](Cc4ccccc4)CN32)cc1 | ATCC 32045 |  | EC50 | 6.3 µg/mL
C=C(Cl)/C=C/[C@H](O)CC(=C)C[C@H]1OC2[C@@H](O)[C@]3(O)C[C@@H](O)[C@H](C)[C@H](CCC/C=C\[C@@H]4C[C@@H](O)C[C@]5(C[C@H](OC)CC(CC(=O)[C@@H](C)[C@H](OC(C)=O)[C@@H](C)C(=C)C[C@@H]6C[C@@](C)(O)C[C@]7(C[C@H](OC(C)=O)CC(CC(=O)O[C@@H]([C@@H]1O)[C@H]2C)O7)O6)O5)O4)O3 | ATCC66031 |  | MFC | 1.56 µg/mL
C1CCC(C[C@@H]2CN3C(=NC[C@H]3C3CCCCC3)N2CCC23CC4CC(CC(C4)C2)C3)CC1 | ATCC 32045 |  | EC50 | 9.9 µg/mL
COC1=CC(=O)c2c(O)cc(C)cc2C1=O |  |  | MFC | 200 µg/mL
CC(C)(C)C1CCC(CN2C3=NC[C@H](Cc4ccccc4)N3C[C@@H]2Cc2ccccc2)CC1 | ATCC 32045 |  | EC50 | 2.5 µg/mL
C=C1/C=C(\C)[C@H](CC)OC(=O)[C@H](C)C(=O)C(O)(CO)C/C(OC)=C/[C@@H](C)C1 | IAM 4772 |  | MFC | 0.3 µg/mL
O=Cc1cc(O)ccc1O | CBS 132 | broth dilution / turbidity | EC50 | 0.08 µM
CC(C)(C)C1CCC(CN2C3=NC[C@H](C4CCCCC4)N3C[C@@H]2CC2CCCCC2)CC1 | ATCC 32045 |  | EC50 | 4.1 µg/mL
Cc1nn([C@H](C)[C@](O)(Cn2cncn2)c2ccc(F)cc2F)c2ccc([N+](=O)[O-])cc12 | ATCC 4065 |  | MIC90 | 0.5 µg/mL
COc1cc(/C=C2\SC(N(C)C)=NC2=O)cc(OC)c1OC | ATCC 32264 | broth dilution | MIC100 | >250 µg/mL

5 of the rows above, restated:

compound	strain	read by	endpoint	result
COC(=O)Nc1nc2ccc(C(=O)c3cccs3)cc2[nH]1	IU4		EC90	0.22 µg/mL
C[C@H]1[C@H](O)[C@@H](C)/C=C/C=C/C=C/C=C/C=C/C=C/C=C/[C@H](O[C@@H]2O[C@H](C)[C@@H](O)[C@H](N)[C@@H]2O)C[C@@H]2O[C@](O)(C[C@@H](O)C[C@@H](O)CC[C@H](O)[C@@H](O)C[C@@H](O)CC(=O)O[C@H]1C)C[C@H](O)[C@H]2C(=O)O	ATCC 32264	broth dilution	MIC100	0.25 µg/mL
Cc1c(N)nc([C@H](CC(N)=O)NC[C@H](N)C(N)=O)nc1C(=O)N[C@H](C(=O)N[C@H](C)[C@@H](O)[C@H](C)C(=O)N[C@H](C(=O)NCCc1nc(-c2nc(C(=O)NCCC[S+](C)C)cs2)cs1)[C@@H](C)O)C(O[C@@H]1O[C@@H](CO)[C@@H](O)[C@H](O)[C@@H]1O[C@H]1O[C@H](CO)[C@@H](O)[C@H](OC(N)=O)[C@@H]1O)c1cnc[nH]1	Isolate 94-181		MLC	3.23 µg/mL
CCN1C2=NC[C@H](Cc3ccccc3)N2C[C@H]1C1CCCCC1	ATCC 32045		EC50	38.6 µg/mL
C=C(CCC1(O)O[C@H]2C[C@H]3[C@@H]4CC=C5C[C@@H](O)[C@H](O)[C@@H](O[C@@H]6O[C@H](CO)[C@H](O)[C@H](O)[C@H]6O)[C@]5(C)[C@H]4CC[C@]3(C)[C@H]2[C@@H]1C)CO[C@@H]1O[C@H](CO)[C@@H](O)[C@H](O)[C@H]1O			MFC	5 µg/mL

A number after MIC or MFC names an inhibition level or a share of isolates. Blank or dashed fields: not listed here. Two numbers with a dash give a range or band. Conditions beyond the fields shown may differ between rows.